# Measured values as given in publication PMC9017343.
# Target: SARS-CoV S trimer (ectodomain) (SARS-CoV) (UniProt P59594)
# Assay: SPR
substance,measurement,value
S309,Kd,1.95 pM
same,koff,2.63e-07 s⁻¹
